From patent EP0442663A1, “Improvements in chemical compounds” (priority 1990, dated 1991)
Where “and” joins values, the source holds several entries; their conditions need not be identical. Identical values can stand only once. Like-named read-outs stand apart in the source and are kept apart here.

Tests used:
HIV-1 (HTLV-IIIB) = assay type: cell-based
Experimental: (§1) The compounds of the invention were tested in a screen by the MTT method (J.Virol. Methods […]: 309-321 [1988]). MT-4 cells (2.5 x 10⁴ / well) were challenged with HIV-1 (HTLV-IIIB) or HIV-2 (LAV-2 ROD) at a concentration of 100 CCID₅₀ and incubated in the presence of various concentrations of the test compounds, which were added immediately after challenge with the virus. After 5 days culture at 37°C in a CO₂ incubator, the number of viable cells was assessed by the MTT (tetrazolium) method. Antiviral activity and cytotoxicity of the compounds are expressed in the table below as ED₅₀ (ug/ml) and CD₅₀ (ug/ml), respectively. The potential therapeutic usefulness was assessed by calculating a Selectivity Index (SI) corresponding to the ratio of CD₅₀ to ED₅₀. A control test was performed using the known anti-HIV treatment AZT, and a comparison compound HPA-23 was also run through the screen as detailed below. In the table below, the compounds screened were […]

HIV-2 (LAV-2 ROD) = assay: MTT method anti-HIV screen in MT-4 cells, HIV-2 challenge; assay type: cell-based
Experimental: as §1

[1] = Selectivity Index, ratio of CD50 to ED50, HIV-1; 7200 min
[2] = Selectivity Index, ratio of CD50 to ED50, HIV-2; 7200 min
[3] = Selectivity Index, ratio of CD50 to ED50, HIV-1, 7200 min

Row | Substance | SI (HIV-1 (HTLV-IIIB); [1]) | SI (HIV-2 (LAV-2 ROD); [2]) | SI (HIV-1 (HTLV-IIIB); [3]) | SI (HIV-2 (LAV-2 ROD); Selectivity Index, ratio of CD50 to ED50, HIV-2, 7200 min)
1 | K9Li[P2W17O62] [E] | 172 | 59 |  | 
2 | (NH₄)₁₂[H₂P₂W₁₂O₄₈].16H₂O [Example 7] |  |  | >171 and 236 | 
3 | K12[H2P2W12O48] [A] | 8138 | 4403 |  | 
4 | K10[P2W18Zn4(H2O)2O68] [B] | 661 | 25 |  | 
5 | Na7[PrW10O35] [C] | 409 | 285 |  | 
6 | Na12[P4W14O58] [F] | 136 | 51 |  | 
7 | (NH₄)₁₇H[NaSb₉W₂₁O₈₆] [HPA 23, reference compound] | <2.7 | <1 |  | 
8 | Reduced form of K₆[P₂W₁₂Mo₆O₆₂] [Example 12] |  |  | 57 and 52 | 173 and 214
9 | K10[P2W18Co4(H2O)2O68] | 58 | 7 |  | 
